Anti-infective test results gathered from many reports (values: NIAID ChemDB through PubChem).

Common to all: growth or infection tests; species: Mycobacterium tuberculosis

Blank or dashed fields: not listed here. Two numbers with a dash give a range or band. Fold resistance has wild type as its base. MIC bound comes from a single tested concentration. A number after MIC or MFC names an inhibition level or a share of isolates. Inhibition is in % at the dose shown (toxicity tests: loss of growth or viability). Lines come from different laboratories, so protocols vary.

structure	strain	mutations	method	measure	dose	value
O=c1oc2ccccc2c(O)c1C1=NNC(c2ccc(C(F)(F)F)cc2)C1	H37Rv		agar	MIC90		4.94 µg/mL
NC(=O)c1cnccn1	ATCC 25618			MIC		≤100 µg/mL
CCOc1cc(/C=N/N=c2\scc(-c3cc4cc(Br)ccc4oc3=O)n2CC)ccc1O	H37Rv			MIC		>12.5 µg/mL
NCC(=O)c1ccc2oc3ccccc3c2c1	H37Rv		BACTEC	MIC bound		>12.5 µg/mL
CCCCn1c(-c2cc3ccccc3oc2=O)cs/c1=N\N=C\c1ccc(O)c(OCC)c1	H37Rv			MIC		<12.5 µg/mL
CCCCCCCCCCCNCCNC1CCCCC1C				MIC		50 µM
Cc1cc2oc(=O)c(C3=NNC(c4ccc(C(F)(F)F)cc4)C3)c(O)c2cc1C	INHR-MTB	Isoniazid-resistant	agar	MIC90		>6.25 µg/mL
CCN(CC)CCNc1c(OC)cc(C)c2sc3ccccc3c(=O)c12.O=C(O)/C=C/C(=O)O	H37Rv		BACTEC	MIC bound		≤12.5 µg/mL
C=C(C)C1CC=C(C)/C(=N/NC(=O)c2cccnc2)C1		KatG S315T	visual reading / absorbance	MIC		50 µM
C=C(C)[C@@H]1CC[C@]2(C(=O)O)CC[C@]3(C)C(CCC4[C@@]5(C)CC[C@H](OC(=O)/C=C/c6ccc(O)c(O)c6)C(C)(C)C5CC[C@]43C)C12	H37Ra		resazurin	MIC		200 µg/mL
Cc1cc2oc(=O)c(C(=O)/C=C/c3ccc(C(F)(F)F)cc3)c(O)c2cc1C	INHR-MTB	Isoniazid-resistant	agar	MIC90		>6.25 µg/mL
CO[C@@]12[C@H](COC(N)=O)C3=C(C(=O)C(C)=C(NCCO)C3=O)N1C[C@@H]1N[C@@H]12	H37Rv		BACTEC	MIC bound		>12.5 µg/mL
C[C@]1(COc2ccc(N3CCC(Oc4ccc(OC(F)(F)F)cc4)CC3)cc2)Cn2cc([N+](=O)[O-])nc2O1	31 strains (INH-susceptible)			MIC90		0.012 µg/mL
CCCCCCc1ccc(Oc2ccccc2)c(O)c1	TN587			MIC99		2 µg/mL
Cn1c(=O)c2ccccc2c2nc3ccccc3nc21	H37Rv		BACTEC	MIC bound		>12.5 µg/mL
CCC(C)OC(=O)N1CCN(c2ccc3cc(-c4ccccc4)c(N4CCN(C(=O)OC(C)CC)CC4)nc3n2)CC1	H37Rv			inhibition	6.25 µg/mL	48%
O=C(CCCC(=O)N/N=C/c1cccc2ccccc12)N/N=C/c1cccc2ccccc12	H37Rv		BACTEC	MIC bound		>12.5 µg/mL
CC(=O)c1cc([N+](=O)[O-])c2nc(C(C)(C)C)ccc2c1	H37Rv			MIC		>6.25 µg/mL
CCNc1nn2ccccc2c1C=C(C#N)C(=O)OCC	H37Rv		resazurin	MIC bound		>6.25 µg/mL
CC(=O)c1cc([N+](=O)[O-])c2ncccc2c1C(C)C	H37Rv			inhibition	6.25 µg/mL	0%
CC(=O)Oc1ccc(/C=C/C(=O)O[C@H]2CC[C@@]3(C)C(CC[C@]4(C)C3CC=C3C5CC(C)(C)CC[C@]5(C(=O)O)CC[C@]34C)C2(C)C)cc1OC(C)=O	H37Ra		resazurin	MIC		12.5 µg/mL
CC(=O)c1cc([N+](=O)[O-])c2nc(C34CC5CC(CC(C5)C3)C4)ccc2c1	H37Rv			MIC		>6.25 µg/mL
C[C@H]1COc2c(N3CCN(C)CC3)c(F)cc3c(=O)c(C(=O)O)cn1c23	CSU25			MIC		≤0.125 µg/mL
CC1(C)CNCC(C)(OCc2ccccc2)C(=O)NC(C)(C)CNCC(C)(OCc2ccccc2)C(=O)N1	H37Rv		BACTEC	inhibition	12.5 µg/mL	0%
Nc1ccc2c(-c3ccccc3)cc(N3CCN(c4ccccc4)CC3)nc2n1	H37Rv			inhibition	6.25 µg/mL	94%
CCOc1cc(/C=N/N=c2\scc(-c3cc4ccccc4oc3=O)n2CC)ccc1O	H37Rv			MIC		<12.5 µg/mL
CN[C@@H]1[C@H](O[C@H]2[C@H](O[C@H]3[C@H](O)[C@@H](O)[C@H](N=C(N)N)[C@@H](O)[C@@H]3N=C(N)N)O[C@@H](C)[C@]2(O)C=O)O[C@@H](CO)[C@H](O)[C@H]1O	9135			MIC		≥2 µg/mL
CCCCCOc1c(C(C)=O)cc([N+](=O)[O-])c2nccc(CC)c12	H37Rv			MIC		>6.25 µg/mL
CC(C)(C)OC(=O)C1=C2C=C(O)C=CC2(C)N(Cc2ccccc2)C1=N	H37Rv		resazurin	inhibition	6.25 µg/mL	-49%
CO[C@H]1/C=C/O[C@@]2(C)Oc3c(C)c(O)c4c(O)c(c(/C=N/N5CCN(C6CCCC6)CC5)c(O)c4c3C2=O)NC(=O)/C(C)=C\C=C\[C@H](C)[C@H](O)[C@@H](C)[C@@H](O)[C@@H](C)[C@H](O)[C@@H]1C	Isolate 900233 drug-susceptible			MIC		0.25 µg/mL
N#CC1C(=O)Nc2cccnc21	H37Rv		BACTEC	inhibition	12.5 µg/mL	16%
COc1ccc2cc(-c3ccccc3)c(N3CCN(C(=O)OC(C)C)CC3)nc2n1	H37Rv			MIC		>6.25 µg/mL
C=C(C)[C@@H]1CC[C@]2(C(=O)O)CC[C@]3(C)C(CCC4[C@@]5(C)CC[C@H](OC(=O)/C=C/c6ccccc6)C(C)(C)C5CC[C@]43C)C12	H37Ra		resazurin	MIC		>200 µg/mL
CCCCn1c(-c2cc3cc(Br)ccc3oc2=O)cs/c1=N\N=C\c1ccc(O)c(OCC)c1	H37Rv			inhibition	12.5 µg/mL	69%
CCn1cc(C(=O)O)c(=O)c2cc(F)c(N3CCN(c4nnc(SCC(=O)c5ccc(OC)cc5)s4)C(C)C3)c(OC)c21	H37Rv		broth dilution	inhibition	20 µg/mL	0%
NNC(=O)c1ccncc1	50194			MIC		≥0.2 µg/mL
CC(=O)Oc1cc2c(=O)oc3cc(OC(C)=O)c(=O)oc3c2c(OC(C)=O)c1OC(C)=O	H37Rv		BACTEC	MIC bound		>12.5 µg/mL
CCOc1ccccc1CNCCN[C@@H]1C[C@@H]2C[C@H]([C@H]1C)C2(C)C				MIC		50 µM
O=C(/C=C/c1ccc(Cl)cc1Cl)c1c(O)c2ccccc2oc1=O	H37Rv		agar	MIC90		>6.25 µg/mL
NNC(=O)c1ccncc1	H37Ra		resazurin	MIC		0.06 µg/mL
Clc1ccc2c(-c3ccccc3)cc(N3CCN(c4ccccc4)CC3)nc2n1	H37Rv			inhibition	6.25 µg/mL	55%
Fc1ccc(CCNCCNCCCc2ccccc2)cc1				MIC		12.5 µM
O=[N+]([O-])c1cccc2ccc(C3CCCCC3)nc12	Isoniazid-resistant			MIC		25 µg/mL
CC(NCCNCCC(c1ccccc1)c1ccccc1)C12CC3CC(CC(C3)C1)C2				MIC		6.25 µM
O=C(NN1C(=O)CS(=O)(=O)C1c1ccc(C(F)(F)F)cc1)c1ccncc1		KatG *741R	visual reading / absorbance	MIC		25 µM
Cc1cc2oc(=O)c(C3=NN(c4ccccc4)C(c4ccc(Cl)cc4Cl)C3)c(O)c2cc1C	H37Rv		agar	MIC90		>6.25 µg/mL
NNC(=O)c1ccncc1	Isolate 2218			MIC		4 µg/mL
COc1c(C(C)=O)cc([N+](=O)[O-])c2ncccc12	H37Rv			MIC		>6.25 µg/mL
Clc1ccc2c(-c3ccccc3)cc(N3CCNCC3)nc2n1	H37Rv			inhibition	6.25 µg/mL	70%
CCCCCCCCS(=O)(=O)CC(N)=O	1T2768			MIC		≤6.25 µg/mL
CCCCCCCCCCCNCCNCCc1cccc(F)c1				MIC		25 µM
CCOC(=O)N1c2ccccc2S(=O)(=O)c2ccccc21	H37Rv		BACTEC	inhibition	12.5 µg/mL	1%
CC1CN(c2c(F)cc3c(=O)c(C(=O)O)cn(C4CC4)c3c2F)CCN1	Strain 24			MIC		0.25 µg/mL
COc1ccc(/C=C/C(=O)O[C@H]2CC[C@@]3(C)C(CC[C@]4(C)C3CC=C3C5CC(C)(C)CC[C@]5(C(=O)O)CC[C@]34C)C2(C)C)cc1	H37Ra		resazurin	MIC		200 µg/mL
C[C@H]1COc2c(N3CCN(C)CC3)c(F)cc3c(=O)c(C(=O)O)cn1c23	H37Rv			MIC		0.5 µg/mL
CCc1ccc([C@H]2C[C@@H](C(F)(F)F)n3ncc(C(=O)NCc4ccc(OC)cc4)c3N2)cc1	H37Rv	MmpL3: Ala677Val	fluorescence	fold resistance		>8
CC(NCCNC[C@@H]1CC[C@H]2C[C@@H]1C2(C)C)C12CC3CC(CC(C3)C1)C2				MIC		50 µM
NC(=S)NNC(=S)S	ETA-R			MIC		12.5 µg/mL
COc1cccc(C2CC(c3c(O)c4ccccc4oc3=O)=NN2)c1O	INHR-MTB	Isoniazid-resistant	agar	MIC90		>6.25 µg/mL
CC(Oc1cccc([N+](=O)[O-])c1)C(=O)N/N=C1\CCOc2ccccc21	H37Rv			inhibition	12.5 µg/mL	50–64%
NNC(=O)c1ccncc1	W210			MIC99		0.03 µg/mL
CCCCCCOc1c(C(C)=O)cc(N)c2nccc(CC)c12	H37Rv			MIC		>6.25 µg/mL
O=C1C(Cl)=C(NCCCN2CCOCC2)C(=O)c2ccccc21	H37Rv		BACTEC	inhibition	12.5 µg/mL	46%
CC[C@@H](CO)NCCN[C@@H](CC)CO	CSU21			MIC		>8 µg/mL
COc1ccc2c(-c3ccccc3)cc(N3CCNCC3)nc2n1	H37Rv			MIC		>6.25 µg/mL
O=C(NO)c1cnccn1	H37Rv		BACTEC	inhibition	12.5 µg/mL	12%
COc1ccc2cc(-c3ccccc3)c(N3CCNCC3)nc2n1	H37Rv			inhibition	6.25 µg/mL	67%
COc1cc2oc3c(c(=O)c2c(O)c1/C=C/C(C)C)C(C=C(C)C)Oc1cc(O)ccc1-3	H37Rv		BACTEC	MIC		≥12.5 µg/mL
O=C(N/N=C(\c1nc2ccc([N+](=O)[O-])cc2[nH]c1=O)C(O)c1ccc([N+](=O)[O-])cc1)c1ccncc1		KatG S315T	visual reading / absorbance	MIC		50 µM
COc1ccc2c(-c3ccccc3)cc(N3CCOCC3)nc2n1	H37Rv			inhibition	6.25 µg/mL	35%
O/N=C1\CC/C(=N\O)c2ccccc21	H37Rv		BACTEC	MIC bound		>12.5 µg/mL
CCn1cc(C(=O)O)c(=O)c2cc(F)c(N3CCN(c4nnc(SCC(=O)c5ccc(F)cc5)s4)C(C)C3)c(OC)c21	H37Rv		broth dilution	MIC90		5 µg/mL
Clc1c(-c2ccccc2)oc2nc3ccccc3nc12	H37Rv		BACTEC	inhibition	12.5 µg/mL	-49%
NNC(=O)c1ccncc1	CSU28			MIC		≤0.125 µg/mL
CCCCCCCCCCCNCCNCCc1ccccc1				MIC		25 µM
CC(=O)Oc1ccc(/C=C/C(=O)O[C@H]2CC[C@@]3(C)C(CC[C@]4(C)C3CC=C3C5[C@@H](C)[C@H](C)CC[C@]5(C(=O)O)CC[C@]34C)C2(C)C)cc1	H37Ra		resazurin	MIC		25 µg/mL
N#C/C(=C\c1ccc(Cl)cc1)C(=O)NC(N)=O	H37Rv		BACTEC	inhibition	12.5 µg/mL	11%
C/C=C1\C(=O)O[C@]23C=C[C@@H]4C(C(=O)OC)=CO[C@H](O[C@@H]12)[C@@H]43	MDR1 clinical isolate		MTT	MBC		3.6 µg/mL
O=C(/C=C/c1ccc(C(F)(F)F)cc1)c1c(O)c2ccccc2oc1=O	INHR-MTB	Isoniazid-resistant	agar	MIC90		26.25 µg/mL
NNC(=O)c1ccncc1	H37Rv	KatG S315R	visual reading / absorbance	MIC		6.3 µM
Nc1c(-c2nc3ccccc3s2)[n+]([O-])c2ccccc2[n+]1[O-]	H37Rv		BACTEC	MIC		≥12.5 µg/mL
CCN1CCN(c2ccc3c(-c4ccccc4)cc(N4CCN(CC)CC4)nc3n2)CC1	H37Rv			inhibition	6.25 µg/mL	81%
CCCOc1c(C(C)=O)cc([N+](=O)[O-])c2nccc(CC)c12	H37Rv			inhibition	6.25 µg/mL	0%
CCn1cc(C(=O)O)c(=O)c2cc(F)c(N3CCN(c4nnc(SCC(=O)c5ccc(Br)cc5)s4)C(C)C3)c(OC)c21	H37Rv		broth dilution	MIC90		1.5 µg/mL
Clc1ccc(CCNCCNCCC(c2ccccc2)c2ccccc2)c(Cl)c1				MIC		12.5 µM
O=[N+]([O-])c1ccccc1S(=O)(=O)c1cc(Cl)cc2c1NCCC2	H37Rv		BACTEC	inhibition	12.5 µg/mL	44%
CCCCCCCCOc1c(C(C)=O)cc(N)c2nccc(CC)c12	Ethambutol-resistant			MIC		6.25 µg/mL